A mixed list of measured activities; the numbers were collected in NIAID ChemDB.

Shared fields: growth or infection tests; species: Candida albicans; read-out: MIC

Lines come from different laboratories, so protocols vary. An empty or dashed field is not shown.

structure | strain or isolate | read by | value
C[C@H]1[C@H](O)[C@@H](C)/C=C/C=C/C=C/C=C/C=C/C=C/C=C/[C@H](O[C@@H]2O[C@H](C)[C@@H](O)[C@H](N)[C@@H]2O)C[C@@H]2O[C@](O)(C[C@@H](O)C[C@@H](O)CC[C@H](O)[C@@H](O)C[C@@H](O)CC(=O)O[C@H]1C)C[C@H](O)[C@H]2C(=O)O | DARL82/003 (azole-resistant) | - | 0.5 µg/mL
CN(C)c1ccc(C2Sc3ccccc3C2CO)cc1 | - | - | 50 µg/mL
CCCCC/C=C/C=C/C(O)C/C=C/C=C/C(=O)OC1C(O)C(c2c(O)cc(O)cc2CO)OC(CO)C1OC1OC(C(O)COC(=O)/C=C/C=C\CCC(O)CC)C(O)C1O | TIMM1768 | - | 0.2 µg/mL
COc1ccc(-c2sc3ccccc3c2CO)c(O)c1 | - | - | 100 µg/mL
CC1=C(CCO)C(=O)C(O)=C2C1=CC(=O)[C@H]1C(C)(C)CCC[C@]21C | 90028 | - | 0.19 µg/mL
CC1(C)CC(=O)c2cc(C3CC(c4ccc(Cl)cc4)=NN3)[nH]c2C1 | ATCC 2091 | - | 200 µg/mL
CCCC(c1ccccc1SCc1ccc(Cl)c(Cl)c1)n1ccnc1 | - | - | >100 µg/mL
COC(=O)c1c(C)oc2cc(C(=O)C(Cl)Cl)c(O)c(Cl)c12 | ATCC 10231 | - | 100 µg/mL
COc1ccc(C(=O)CC(=O)c2ccc3sccc3c2OC)cc1 | - | - | 12.5 µg/mL
CCOC(=O)Cc1csc(NC(=O)CSc2nnc(C(C)Oc3ccc(Cl)cc3)n2-c2ccccc2)n1 | NRRL Y-27077 | - | 8 µg/mL
CN1C(=O)CS/C1=N/NC(=O)c1cn2ccccc2n1 | ATCC 10231 | broth dilution | 64 µg/mL
OC(Cn1cncn1)(Cn1cncn1)c1ccc(F)cc1F | MTCC 183 | turbidity | 150 µg/mL
CNC(=S)NNC(=O)c1cn2ccccc2n1 | ATCC 10231 | broth dilution | 64 µg/mL
CC1(c2ccccc2)CC(/C(=N/OCC(O)CN2CCOCC2)c2cc3ccccc3o2)C1 | ATCC 10231 | - | 0.625 µg/mL
CC(C)=CCC/C(C)=C/CC/C(C)=C/CCCN(C)CC/C=C(\C)CCC1OC1(C)C | - | - | >200 µM
COC(=O)C1CCc2sccc2C1=O | - | - | 50 µg/mL
CCCCCCCCCCCCCSc1cc(C(N)=S)ccn1 | 176 | - | 200 µg/mL
CO/N=C(\c1cc2ccccc2o1)C1CC(C)(c2ccccc2)C1 | ATCC 10231 | - | 0.625 µg/mL
CCCCCCSc1cc(C(N)=S)ccn1 | 176 | - | 25 µg/mL
C[C@H]1N(C(=O)c2ccc(C(F)(F)F)cc2)C[C@@H](O)O[C@@]1(Cn1cncn1)c1ccc(F)cc1F | Isolate 1 | - | 16 µg/mL
CCC(C)CC(C)CCCCCCCCC(=O)NC1C[C@H](O)[C@@H](O)NC(=O)[C@@H]2[C@@H](O)[C@@H](C)CN2C(=O)[C@H]([C@H](O)CC(N)=O)NC(=O)[C@H](C(O)[C@H](O)c2ccc(O)cc2)NC(=O)[C@@H]2C[C@@H](O)CN2C(=O)[C@H]([C@@H](C)O)NC1=O | MY1028 | - | 1 µg/mL
COc1ccc(CC2CC([C@H]3O[C@@H]4OC(C)(C)O[C@@H]4[C@H]3OC)=NO2)cc1 | - | - | >50 µg/mL
COc1cc(C(=O)O[C@H]2C=C(C)/C(=C\CO)C[C@@]3(C)CC[C@@](O)(C(C)C)C23)ccc1O | SC5314 | - | >50 µg/mL
O=[N+]([O-])c1ccc(OC(CCn2ccnc2)c2ccccc2)cc1 | 20 strains | - | 26.8 µg/mL
COc1cccc(C2Sc3ccccc3C2CO)c1O | - | - | 50 µg/mL
CC(=O)O[C@H]1CC[C@@]2(C)C(=CCC3C4CCC(C(=O)/C=C/c5ccc(F)cc5)[C@@]4(C)CCC32)C1 | MTCC 183 | turbidity | 300 µg/mL
OC(Cn1cncn1)(Cn1cncn1)c1ccc(F)cc1F | 2881 | - | 6.25 µg/mL
C=C1CC[C@@H]2C[C@H]1C2(C)C | ATCC 10231 | agar diffusion / agar | 187 µg/mL
CCCCCCCCCSc1cc(C(N)=S)ccn1 | 3a | - | 200 µg/mL
Cc1ccc(N2C(=O)CS/C2=N/NC(=O)c2cn3ccccc3n2)cc1 | ATCC 10231 | broth dilution | 32 µg/mL
CC(Oc1ccccc1)c1nnc(SCC(=O)Nc2nccs2)n1C1CCCCC1 | Clinical isolates | - | >16 µg/mL
Clc1ccc(OC(CCn2ccnc2)c2ccccc2)cc1 | 20 strains | - | 3.15 µg/mL
CC(=O)O[C@H]1CC[C@@]2(C)C(=CCC3C4CCC(C(=O)/C=C/c5ccc(Cl)cc5)[C@@]4(C)CCC32)C1 | MTCC 183 | turbidity | 500 µg/mL
Cc1cccc(CSc2cc(C(N)=S)ccn2)c1 | 44859 | - | 62.5 µM
O=C(NNC(=S)Nc1ccc(Cl)cc1)c1cn2ccccc2n1 | ATCC 10231 | broth dilution | 32 µg/mL
NC(=S)c1ccnc(SCc2c(F)cccc2Cl)c1 | 44859 | - | >500 µM
CCC(C)CC(C)CCCCCCCCC(=O)N[C@H]1C[C@@H](O)[C@@H](OCCN)NC(=O)[C@@H]2[C@@H](O)CCN2C(=O)[C@H]([C@@H](O)CCN)NC(=O)[C@H]([C@H](O)[C@@H](O)c2ccc(O)cc2)NC(=O)[C@@H]2C[C@@H](O)CN2C(=O)[C@H]([C@H](C)O)NC1=O | ATCC 90028 | - | ≤0.007 µg/mL
O=C1CSC(c2ccccc2)N1c1nnc2c(n1)[nH]c1ccccc12 | ATCC 2091 | - | 200 µg/mL
C(=C\COc1ccc(C2=NCCN2)cc1)/COc1ccc(C2=NCCN2)cc1 | B311 | - | 6.25 µg/mL
CC1=C2Cc3cc(ccc3O)C(=O)O[C@H]3CC[C@@](C)(OC3(C)C)[C@H](Br)CC[C@]2(C)[C@@H](Br)CC1 | - | - | >90 µM
CCCNC(=S)NNC(=O)c1cn2ccccc2n1 | ATCC 10231 | broth dilution | 32 µg/mL
OCc1c(-c2ccc3c(c2)OCO3)sc2ccccc12 | - | - | 25 µg/mL
Clc1ccc(CSc2ccccc2Cn2ccnc2)cc1 | - | - | 6.3 µg/mL
Cc1c(O)cccc1C(=O)N[C@@H](CSc1ccccc1)[C@H](O)CN1C[C@H]2CCCC[C@H]2C[C@H]1C(=O)NC(C)(C)C | I133A | - | 64 µg/mL
CC1=CCC[C@H]2[C@](C)(CC3=C(O)C(N[C@H](C(=O)O)C(C)C)=CC(=O)C3=O)[C@@H](C)CC[C@]12C | - | - | 33 µg/mL
CC1=CC[C@@H]2C[C@H]1C2(C)C | ATCC 10231 | agar diffusion / agar | >20000 µg/mL
C=C(C)[C@@H]1CCC(C)(O)[C@H](Br)CC[C@@]2(C)[C@H](Cc3cc(ccc3O)C(=O)O1)C(C)=CC[C@@H]2Br | - | - | 44 µM
COc1ccc(/C=C/C(=O)c2ccc3c(ccn3C)c2O)cc1 | - | - | >50 µg/mL
COc1cc(C(=O)OC2CC(C)=CCC3(C)CCC(O)(C(C)C)C23)ccc1O | SC5314 | - | >50 µg/mL
CC1(C)CC(=O)c2cc(C3CC(c4ccc(Br)cc4)=NN3)[nH]c2C1 | ATCC 2091 | - | 200 µg/mL
CO[C@@H]1[C@H]2OC(C)(C)O[C@H]2O[C@@H]1C1=NOC(CO)C1 | - | - | >50 µg/mL
N=C(N)c1ccc(OC/C=C/COc2ccc(C(=N)N)cc2)cc1 | B311 | - | 6.25 µg/mL
COc1ccc(CSc2cc(C(N)=S)ccn2)cc1 | 44859 | - | 125 µM
COc1ccc(C(=O)CC(=O)c2ccc3c(ccn3C)c2OC)cc1 | - | - | 25 µg/mL
CCCCCCCCCCCCCCCC[n+]1ccc(N)cc1 | - | agar diffusion | 15.62 µM
CC(C)[C@]1(C)CC[C@]2(C)C=CC(C)(C)C[C@H](OC(=O)c3ccccc3)C12 | SC5314 | - | >50 µg/mL
C=C1C(=O)OC2C3C4(OC4[C@H](O)[C@@]3(C)O)[C@@H](C)C[C@@H](O)[C@@H]12 | - | - | 20 µg/mL
OCC1c2ccccc2SC1c1ccccc1 | - | - | 50 µg/mL
NC(=S)c1ccnc(SC2CCCCC2)c1 | 42 | - | 100 µg/mL
CC1=C[C@H](OC(=O)c2ccc(O)cc2)C2[C@](C)(CC[C@@]2(O)C(C)C)C/C1=C/CO | SC5314 | - | >50 µg/mL
CCOC(=O)c1csc(NC(=O)CSc2nnc(C(C)Oc3ccccc3)n2-c2ccccc2)n1 | Clinical isolates | - | >16 µg/mL
COc1ccc(C2Sc3ccccc3C2CO)c(O)c1 | - | - | 100 µg/mL
CC(Oc1ccccc1)c1n[nH]c(=S)n1C1CCCCC1 | NRRL Y-27077 | - | 16 µg/mL
C=C(C)[C@@H]1CCC(C)(O)[C@H](Br)CCC2C(C)=CCC(C)=C2Cc2cc(ccc2O)C(=O)O1 | - | - | 46 µM
NC(=S)c1ccnc(SCc2c(F)cccc2[N+](=O)[O-])c1 | 44859 | - | 250 µM
CC1(C)O[C@H]2O[C@H](C3=NOC(C#N)C3)[C@H](OCc3ccccc3)[C@H]2O1 | - | - | >50 µg/mL
OCC1c2ccccc2SC1c1cc(Cl)ccc1O | - | - | 50 µg/mL
CO[C@@H]1[C@H]2OC(C)(C)O[C@H]2O[C@@H]1C1=NOC(Cc2ccc(O)cc2)C1 | - | - | >50 µg/mL
C=C[C@@]1(C)CC[C@@]2(O)C3=C1C=C(C#N)C(C)(C)c1[nH]c4cccc(c4c13)C2(C)C | - | broth dilution | 32.9 µM
CC(=O)C1CCc2c(ccn2C)C1=O | - | - | 50 µg/mL
C[C@@H](SC1COC(/C=C/C=C/c2ccc(C#N)cc2F)OC1)[C@](O)(Cn1cncn1)c1ccc(F)cc1F | CAL-0012 | - | 0.06 µg/mL
COc1ccc(C2=CC(c3ccc(S(N)(=O)=O)cc3)C(c3ccccc3)C2)cc1 | ATCC 2091 | - | 200 µg/mL
COc1cc(C[C@@]2(O)CO[C@H](c3ccc(O)c(OC)c3)[C@H]2CO[C@@H]2O[C@H](CO)[C@@H](O)[C@H](O)[C@H]2O)ccc1O | ATCC 90028 | MTT | 6 µg/mL
COc1ccc(C[C@H](N)C(=O)N[C@H]2[C@@H](O)[C@H](n3cnc4c(N)ncnc43)O[C@@H]2C(=O)O)cc1 | FP-618 | - | 0.8 µg/mL
CCN1C(=O)CS/C1=N/NC(=O)c1cn2ccccc2n1 | ATCC 10231 | broth dilution | 64 µg/mL
Cc1ccc(OC(CCn2ccnc2)c2ccccc2)cc1 | 20 strains | - | 9.4 µg/mL
CCCC(O)C/C=C\C=C\C(=O)OC[C@H]1O[C@@H](O[C@@H]2[C@H](OC(=O)/C=C/C=C/CC(O)/C(C)=C/C=C/CCC(C)CC)[C@@H](O)[C@]3(OCc4cc(O)cc(O)c43)O[C@@H]2CO)[C@H](O)[C@@H](O)[C@H]1O | MY1055 | - | 1 µg/mL

The last 8 rows once more:

| structure | strain or isolate | read by | value |
|---|---|---|---|
| CC(=O)C1CCc2c(ccn2C)C1=O | - | - | 50 µg/mL |
| C[C@@H](SC1COC(/C=C/C=C/c2ccc(C#N)cc2F)OC1)[C@](O)(Cn1cncn1)c1ccc(F)cc1F | CAL-0012 | - | 0.06 µg/mL |
| COc1ccc(C2=CC(c3ccc(S(N)(=O)=O)cc3)C(c3ccccc3)C2)cc1 | ATCC 2091 | - | 200 µg/mL |
| COc1cc(C[C@@]2(O)CO[C@H](c3ccc(O)c(OC)c3)[C@H]2CO[C@@H]2O[C@H](CO)[C@@H](O)[C@H](O)[C@H]2O)ccc1O | ATCC 90028 | MTT | 6 µg/mL |
| COc1ccc(C[C@H](N)C(=O)N[C@H]2[C@@H](O)[C@H](n3cnc4c(N)ncnc43)O[C@@H]2C(=O)O)cc1 | FP-618 | - | 0.8 µg/mL |
| CCN1C(=O)CS/C1=N/NC(=O)c1cn2ccccc2n1 | ATCC 10231 | broth dilution | 64 µg/mL |
| Cc1ccc(OC(CCn2ccnc2)c2ccccc2)cc1 | 20 strains | - | 9.4 µg/mL |
| CCCC(O)C/C=C\C=C\C(=O)OC[C@H]1O[C@@H](O[C@@H]2[C@H](OC(=O)/C=C/C=C/CC(O)/C(C)=C/C=C/CCC(C)CC)[C@@H](O)[C@]3(OCc4cc(O)cc(O)c43)O[C@@H]2CO)[C@H](O)[C@@H](O)[C@H]1O | MY1055 | - | 1 µg/mL |